# Source: patent US7652050B2, “Methods for increasing the survival of aquatic animals infected with an aquatic virus” (Laboratorio de Siagnóstico GAM S.A, priority 2001, dated 2010)
# Tested on: IPNV
# Assay: Survival of IPNV-infected Atlantic salmon fry treated with neomycin by immersion
# Details: neomycin as low as 10 ppm, 1 hour daily bath through day 10; followed 26 days
substance,measurement,value
neomycin,"Survival of infected fry, treatment from day one post-infection",can maintain survival to levels equivalent to the uninfected controls
